Assay: Membrane permeability and adhesion assay (1H CPMG NMR; PF and MAF)
Conditions: 1 = most; for MAF rank: 8 = least membrane adherent; for PF rank: 8 = least phospholipid membrane permeable
Source text: Finally, in line with our previous work, we moved to characterise the membrane adhesion and permeation events of 1–5 and co-formulations a–j with PE : PG 1 : 1 synthetic phospholipid vesicles.[53] This vesicle composition was prioritised for further analysis as this composition acts as a model for an AMR resistant strain of the ESKAPE pathogen P. aeruginosa,[54,55] categorised as high priority by the WHO.[33] As summarised in Table 4, membrane permeation (PF) and membrane adhesion factors (MAF) for the SSA anionic components were calculated through the use of ^1H CPMG NMR spectroscopy experiments, using vesicles produced by extrusion through a 1000 nm polycarbonate membrane.
Here the lower the MAF, the stronger the adhesion of the molecule to the surface of the phospholipid membrane. […] A PF value of 1 or above provides evidence of SSA permeation. The greater this value above 1, the greater the membrane permeation potential of a compound. […]
Membrane permeability and adhesion assay, determining membrane adhesion factors (MAF) and permeation factors (PF): Lipid vesicles of DOPE and PG, in a 1:1 ratio by weight were prepared as described in ‘preparation of vesicles’ with one alteration. Here vesicles were extruded 21 times through a 1000 nm polycarbonate membrane. NMR samples were prepared containing: SSA ( 200 µM), 95% HEPES buffer (HEPES (10 mM), NaCl (10 mM)) and 5% D 2O, and sodium trimethylsilylpropanesulfonate - DSS (1 µM). In order to calculate the PF and MAF the paramagnetic relaxation enhancement agent (PRE), gadodiamide (1 mM) was added to the NMR mixture. Where lipid vesicles were present in the NMR mixture, vesi cles were added at a concentration of 0.1 mg/mL.
All 1H CPMG NMR spectra were collected with a spin -lock time of 150 mS on a Bruker Avance III spectrometer equipped with a cold probe at a proton frequency of 600 MHz and recorded at 298 K.
Peak intensities were measured using MestReNova (Mestrelab Research). The MAF and PF were determined using previously published method. 3 For individual SSAs, MAF and PF were calculated using all aromatic CH resonances. For SSA co -formulations an average MAF and PF were calculated using all aromatic CH resonances. For individual components of the SSA co -formulations, the resonances for the different SSA anions were treated independently of one another.

SMILES | MAF rank | PF rank
O=S(=O)(O)CCCNC(=S)Nc1ccc(C(F)(F)F)cc1 [SSA 1] | 8 | 4
O=C(O)CNC(=S)Nc1ccc(C(F)(F)F)cc1 [SSA 2] | 6 | 5
Cc1ccc2nc(-c3ccc(NC(=O)NCS(=O)(=O)O)cc3)sc2c1 [SSA 3] | 1 | 8
O=c1c(NCCCS(=O)(=O)O)c(Nc2ccc(C(F)(F)F)cc2)c1=O [SSA 4] | =2 | 1
O=C(O)CNc1c(Nc2ccc(C(F)(F)F)cc2)c(=O)c1=O [SSA 5] | =2 | 7
